Test results published in patent US9481871B2, “Nucleic acid encoding a polpeptide having aminotransferase activity, vectors and host cells comprising the nucleic acid” (KANEKA CORPORATION, priority 2010, dated 2016).

Assay: Optimum pH of transamination activity
Format: biochemical

B1: TAT: polypeptide having transamination activity from Arthrobacter sp. KNK04-25; amino acid sequence SEQ ID NO: 1 (protein, listed as Arthrobacter sp.)
chain: MSAITLESSLATFTRRFDVSAKLTELGKEVVPGGYSRNSFNFGPHAIYVESGDGAYISTVEGHRLLDLNNNFTVNVLGHNHPSVQRTLRGSIETGVSFGNPVALETELAQLLVERIPSIERVQFSCSASESCMSAVRVARAFTGRTKIAKFEGGYHGFTDPLQVSWHPDHDGDCGPDDAPKAIPDSGGIPAEDVANVVVLTQNDGEGTERILRAHASEIACVIVELESASGGLVTLEQDYVESLRELTSELGIVLIFDETVTLRAGYQGMQGDYGVAPDLTVMGKIIGGGFPLGAVGGSAEIMSVLESGLVSISGTHHGHKIALAAGISTMRELTQGAFDRLNGMATRVMEELNDWSSQRGSSFAVYGKGISHLAYGFMREPGLSIRTHRDYWRNFDGTGTQICSLELANRGFFPVARGDFSLSLPMSDDDITAFVETTKEIVTGIES
For B1, the “pH at which transamination activity was the highest” value (pH 4.0 to 10 tested) was 7 and the “pHs at which transamination activity of 70 or more was confirmed” value (relative to activity of 100 at pH 7.0) was “pH 7.0 and pH 8.0”.
